Measured values from several laboratories, pooled; numbers as filed in NIAID ChemDB.

Shared fields: growth or infection tests; species: HIV-1

ECn is the concentration giving n% inhibition of infection, replication or growth.

| structure | changes | cell line | strain or isolate | read by | measure | result |
|---|---|---|---|---|---|---|
| O=C(O)c1cn(-c2ccc(CN3CCOCC3)cc2)c2c(Cl)c(N3CCN(c4ccc(F)cc4)CC3)c(F)cc2c1=O |  | PBL |  | syncytia | EC50 | 0.03 µM |
| CCc1c(C)[nH]c(=O)c(N)c1Sc1cc(C)cc(C)c1 |  | CEM + CEM-SS | LAI | RT activity | EC50 | 0.014 µM |
| CC(C)=CCOc1cc(NC(=S)c2ccsc2C)ccc1Cl |  | CEM |  | syncytia | EC50 | 0.009 µM |
| CCNc1cc(N2CCc3cc(-c4c(C)nc(C)c([C@H](OC(C)(C)C)C(=O)O)c4N4CCC(C)(C)CC4)ccc3C2)ncn1 |  | MT-2 | NL4-3 | luciferase | EC50 | 0.005 µM |
| C[C@H](CS)C(=O)N1CCC[C@@H]1c1nc2c(Cl)cccc2[nH]1 |  | MT-4 | IIIB | MTT | EC50 | >28.17 µg/mL |
| Cc1nc(N)nc2c1ncn2CC1(OCP(=O)(O)O)CC1 |  |  |  |  | EC50 | >30 µM |
| C[C@H](CS)C(=O)N1CCC[C@@H]1c1nc2ccccc2s1 |  | MT-4 | IIIB | MTT | EC50 | >15.8 µg/mL |
| CC(C)C1=C2[C@H]3CC[C@@H]4[C@@]5(C)CC[C@H](OC(=O)[C@H]6C[C@@H](C(=O)O)C6(C)C)C(C)(C)[C@@H]5CC[C@@]4(C)[C@]3(C)CC[C@@]2([C@@H](O)CNC(=O)[C@@H](NC(=O)c2ccc(Cl)cc2)C(C)O)CC1=O |  | MT-2 | 92HT599 | p24 / ELISA | EC50 | <1 µM |
| Cn1nc(NS(C)(=O)=O)c2c(Cl)ccc(-n3c([C@H](Cc4cc(F)cc(F)c4)NC(=O)Cn4ccc5ccccc54)nc4nc(-c5ccccc5F)ccc4c3=O)c21 |  | MT-2 | NL4-3 | luciferase | EC50 | 0.003 µM |
| CNC(=O)c1ccc(F)c2c(C(=O)C(=O)N3CCN(S(=O)(=O)NC)CC3)c[nH]c12 |  | HeLa | Recombinant | luciferase | EC50 | >5 µM |
| C[C@H](Cn1cnc2c(N)ncnc21)OCP(=O)(O)O |  | TZM-bl | CH058 | luciferase | EC50 | 0.005 µM |
| CC1=CC(=C(c2ccc(N)c(S(=O)(=O)O)c2)c2ccc(N)c(S(=O)(=O)O)c2)C=C(S(=O)(=O)O)C1=N |  | HuT-78 |  | cytopathic effect | EC50 | 16 µM |
| COc1ccnc2[nH]cc(C(=O)C(=O)N3CCN(C(=O)c4ccccc4)C[C@H]3C)c12 |  | PBMC | LAI | RT activity | EC50 | <0.04 µM |
| CCC(C)Sc1nc(Cc2cc(C)cc(C)c2)cc(=O)[nH]1 |  | MT-4 | IIIB | cytopathic effect / MTT | EC50 | 0.6 µM |
| O=C1CN(C(=O)c2cc(-c3cc(Br)cc(OC(F)(F)F)c3)n(-c3ccncc3)n2)CN1 |  | MT-4 | NL4-3 | luminescence | EC50 | 0.112 µM |
| O=S1(=O)c2ccccc2-n2cnnc2-c2cccn21 |  | MT-4 | IIIB | MTT | EC50 | 46 µM |
| Cc1nc(C)c([C@H](OC(C)(C)C)C(=O)O)c(N2CCC(C)(C)CC2)c1-c1ccc2c(c1)CCN(c1cc(C3CCN(C(C)(C)O)CC3)ncc1F)C2 |  | MT-2 | NL4-3 | luciferase | EC50 | 0.01 µM |
| CNC(=O)c1ccc(F)c2c(C(=O)C(=O)N3CCN(S(=O)(=O)N4CCC4)CC3)c[nH]c12 |  | HeLa | Recombinant | luciferase | EC50 | >5 µM |
| CCCCCCCCCCCCCCCC(=O)NC1C(COP(=O)(O)OC2C(O)C(COP(=O)(O)OC3CC(CO)OC3n3cnc4c(N)ncnc43)OC2n2cnc3c(N)ncnc32)OC(n2cnc3c(N)ncnc32)C1O |  |  |  | syncytia | EC50 | <100 µM |
| CC1(C)C=Cc2c(ccc3ccc(=O)oc23)O1 |  | SupT1 + Sup-T1 |  | MTT | EC10 | 80 µg/mL |
| C/C=C/CSc1cc(NC(=S)c2ccoc2C)ccc1Cl |  | CEM |  | syncytia | EC50 | 0.017 µM |
| O=C1C=CC(=C(c2ccc(O)cc2)c2ccc(O)cc2)C=C1 |  | MT-4 |  | cytopathic effect | EC50 | >2.6 µM |
| CC(=O)c1ccc(S(=O)(=O)N(CC(C)C)C[C@@H](O)[C@H](Cc2ccccc2)NC(=O)O[C@H]2CO[C@H]3OCC[C@H]32)cc1 |  | MT-2 | LAI | MTT / absorbance | EC50 | 0.002 µM |
| C[C@H](CS)C(=O)N1CCC[C@@H]1c1nc2ncncc2[nH]1 |  | MT-4 | IIIB | MTT | EC50 | >59.05 µg/mL |
| Fc1ccccc1NC(=S)Nc1nc2ccccc2s1 |  | MT-4 | IIIB | MTT | EC50 | >27 µM |
| CCCCCCCCCCCCCCCC(=O)NC1C(COP(=O)(O)OC2CC(COP(=O)(O)OC3C(O)C(CO)OC3n3cnc4c(N)ncnc43)OC2n2cnc3c(N)ncnc32)OC(n2cnc3c(N)ncnc32)C1O |  |  |  | p24 | EC50 | <300 µM |
| CCc1c(C)[nH]c(=O)c(N)c1Sc1ccccc1 |  | CEM + CEM-SS | LAI | RT activity | EC50 | 0.32 µM |
| COc1cnc(-n2cnc(C)n2)c2[nH]cc(C(=O)C(=O)N3C/C(=C(\C#N)c4ccccc4)CCN3)c12 |  | MT-2 | LAI | luciferase / reporter gene | EC50 | 0.02562 µM |
| Cc1ccc(C(=O)N2c3ccccc3S(=O)(=O)n3cccc3C2CC(=O)O)cc1 |  | MT-4 | IIIB | MTT | EC50 | >326 µM |
| Nc1nc(=O)n([C@@H]2O[C@H](CO)C=C2F)cc1F |  | PBMC | xxBRU | RT activity | EC50 | <9.9 µM |
| CC(C)C[C@H](NC(=O)c1ccc(NC(=O)[C@H](Cc2c[nH]c3ccccc23)NC(=O)CCC(=O)NCCOCNC(=O)CCC(=O)N[C@@H](Cc2c[nH]c3ccccc23)C(=O)Nc2ccc(C(=O)N[C@@H](CC(C)C)C(=O)O)cc2OCCc2c[nH]c3ccccc23)c(OCCc2c[nH]c3ccccc23)c1)C(=O)O |  | TZM-bl | NL4-3 | luciferase / cell fusion | EC50 | 20.5 µM |
| CON(C)C(=O)c1ccc(S(=O)(=O)N(CC(C)C)C[C@@H](O)[C@H](Cc2ccccc2)NC(=O)O[C@H]2CO[C@H]3OCC[C@H]32)cc1 |  | MT-2 | LAI | MTT / absorbance | EC50 | 0.132 µM |
| COC(=O)CC1Nc2ccccc2S(=O)(=O)n2cccc21 |  | MT-4 | IIIB | MTT | EC50 | 19.5 µM |
| CC(C)C1=C2[C@H]3CC[C@@H]4[C@@]5(C)CC[C@H](OC(=O)[C@H]6C[C@@H](C(=O)O)C6(C)C)C(C)(C)[C@@H]5CC[C@@]4(C)[C@]3(C)CC[C@@]2(CC(=O)NCc2ncc[nH]2)CC1=O |  | MT-2 | 92HT599 | p24 / ELISA | EC50 | <1 µM |
| Cc1nc(Cl)c([C@H](OC(C)(C)C)C(=O)O)c(N2CCC(C)(C)CC2)c1-c1ccc2c(c1)CCN(c1nccc(N3CCC(C(C)(C)O)CC3)n1)C2 |  | MT-2 | NL4-3 | luciferase | EC50 | 0.008 µM |
| COc1cnc(-n2cnc(C)n2)c2[nH]cc(C(=O)C(=O)N3CC/C(=C(\C#N)c4ccccc4)CN3C)c12 |  | MT-2 | LAI | luciferase / reporter gene | EC50 | <0.5 µM |
| Clc1ccc2nc(/C=C/c3ccc(-c4ccccc4)cc3)cc(Cl)c2c1 |  | TZM-bl | UG070 | luminescence | EC50 | 87.44 µM |
| CNC(=O)CC1(C(=O)NC)Nc2ccccc2S(=O)(=O)n2cccc21 |  | MT-4 | IIIB | MTT | EC50 | >255 µM |
| COc1ccccc1N1CCN(c2c(F)cc3c(=O)c(C(=O)O)cn(-c4ccc(CN5CCOCC5)cc4)c3c2Cl)CC1 |  | PBL |  | syncytia | EC50 | 0.03 µM |
| O=C(c1cc(-c2cc(Br)cc(OC(F)(F)F)c2)n(-c2ccnc(C(F)(F)F)c2)n1)N1CCSC1 | K103N/Y181C | MT-4 | NL4-3 | luminescence | EC50 | 3.3 µM |
| CCN(CC)C(=O)OC[C@H]1CN(C(=O)c2ccccc2)CCN1C(=O)C(=O)c1c[nH]c2nccc(OC)c12 |  | PBMC | LAI | RT activity | EC50 | >125 µM |
| CC(C)C1=C2[C@H]3CC[C@@H]4[C@@]5(C)CC[C@H](OC(=O)[C@H]6C[C@@H](C(=O)O)C6(C)C)C(C)(C)[C@@H]5CC[C@@]4(C)[C@]3(C)CC[C@@]2(CCNCC(F)(CCCN)NC(=O)c2ccc(Cl)cc2)CC1=O |  | MT-2 | 92HT599 | p24 / ELISA | EC50 | <1 µM |
| C=C(C)COCn1c(CC2CCCc3ccccc32)c(CC)c(=O)[nH]c1=O | RT-Y181C | MT-4 | N119 RT-Y181C NNRTI-resistant | cytopathic effect / MTT | EC50 | >100 µM |
| Cc1cn([C@H]2C[C@H](N=[N+]=[N-])[C@@H](CO)O2)c(=O)[nH]c1=O |  | MT-4 | IIIB | MTT | EC50 | 0.022 µM |
| CC(C)C1=C2[C@H]3CC[C@@H]4[C@@]5(C)CC[C@H](OC(=O)[C@H]6C[C@@H](C(=O)O)C6(C)C)C(C)(C)[C@@H]5CC[C@@]4(C)[C@]3(C)CC[C@@]2([C@@H](O)CNC(=O)C(F)(CCCN)NC(=O)c2ccc(Cl)cc2)CC1=O |  | MT-2 | 92HT599 | p24 / ELISA | EC50 | <1 µM |
| Cc1cc(Cl)c2cc(Cl)ccc2n1 |  | TZM-bl | UG070 | luminescence | EC50 | 101 µM |
| CC(C)[C@@H]1NC(=O)CCOCCCOc2ccc(cc2)C[C@@H]([C@H](O)CN2C[C@H]3CCCC[C@H]3C[C@H]2C(=O)NC(C)(C)C)NC1=O |  | MT-2 | RF | p24 | EC50 | 0.004 µM |
| Cc1cn(CCCCO[C@H]2C=C[C@@H](CO)O2)c(=O)[nH]c1=O |  | MT-4 | IIIB | cytopathic effect / MTT | EC50 | >33 µg/mL |
| COc1cc(/C=C/c2cc(Cl)c3cc(Cl)ccc3n2)cc(OC)c1 |  | TZM-bl | UG070 | luminescence | EC50 | 81.06 µM |
| CC(C)C[C@@H](C=O)NC(=O)[C@H](CC(C)C)NC(=O)[C@H](CC(C)C)NC(=O)OCc1ccccc1 |  | A3.01 | NL4-3 | p24 | EC50 | <40 µM |
| Cc1c(OCC2CCC2)c2cc(F)ccc2[nH]c1=O | RT-K103N | HeLa + HeLa-MAGI | NNRTI-resistant (RT K103N) | β-galactosidase | EC50 | >2 µM |
| CNC(=O)c1ccc(F)c2c(C(=O)C(=O)N3CCN(S(=O)(=O)Nc4ccccc4)CC3)c[nH]c12 |  | HeLa | Recombinant | luciferase | EC50 | 1–5 µM |
| Nc1ncc2ncn(CC3(OCP(=O)(O)O)CC3)c2n1 |  |  |  |  | EC50 | >30 µM |
| CC(C)C1=C2[C@H]3CC[C@@H]4[C@@]5(C)CC[C@H](OC(=O)[C@H]6C[C@@H](C(=O)O)C6(C)C)C(C)(C)[C@@H]5CC[C@@]4(C)[C@]3(C)CC[C@@]2([C@@H](O)CNCC(C)(C)NC(=O)c2ccccn2)CC1=O |  | MT-2 | 92HT599 | p24 / ELISA | EC50 | <1 µM |
| O=S1(=O)c2ccccc2NC(CO)c2cccn21 |  | MT-4 | IIIB | MTT | EC50 | >200 µM |
| Cc1nc(CN)c(-c2ccc3c(c2)CCN(c2ncnc4c2oc2ccccc24)C3)c(N2CCC(C)(C)CC2)c1[C@H](OC(C)(C)C)C(=O)O |  | MT-2 | NL4-3 | luciferase | EC50 | 0.02 µM |
| CC(NC(=S)Nc1nc2ccccc2s1)c1ccccc1 | EFV-resistant | MT-4 | IIIB | MTT | EC50 | >38 µM |
| CC1(C)C(=O)c2c(O)c(=O)c(C(=O)NCc3ccc(F)cc3F)cn2CC1NCCCP(=O)(O)O |  | MT4-GFP | NL4-3 | fluorescence | EC50 | >1.05 µM |
| COc1cnc(-n2cnc(C)n2)c2[nH]cc(C(=O)C(=O)N3CCc4c(-c5ccccc5)ncnc4N3C)c12 |  | MT-2 | LAI | luciferase / reporter gene | EC50 | <0.5 µM |
| CNC(=O)c1ccc(F)c2c(C(=O)C(=O)N3CCN(S(=O)(=O)N4CCOCC4)CC3)c[nH]c12 |  | HeLa | Recombinant | luciferase | EC50 | >5 µM |
| CN(C)Cc1ccc(-n2cc(C(=O)O)c(=O)c3cc(F)c(N4CCN(c5ccccc5)CC4)nc32)cc1 |  | PBL |  | syncytia | EC50 | 0.3 µM |
| Cc1occc1C(=S)Nc1ccc(Cl)c(SCC(=O)OC(C)(C)C)c1 |  | CEM |  | syncytia | EC50 | 0.312 µM |
| Nc1nc2c(ncn2CC2(OCP(=O)(O)O)CC2)c(=O)[nH]1 |  |  |  |  | EC50 | >30 µM |
| Cc1cn([C@H]2C[C@H](N=[N+]=[N-])[C@@H](CO)O2)c(=O)[nH]c1=O |  | MT-4 | IIIB | MTT | EC50 | 0.019 µM |
| O=C(O)c1cn(-c2ccc(CN3CCOCC3)cc2)c2c(Cl)c(N3CCN(c4ccccc4)CC3)c(F)cc2c1=O |  | PBL |  | syncytia | EC50 | 0.015 µM |
| CC(C)C1=C2[C@H]3CC[C@@H]4[C@@]5(C)CC[C@H](OC(=O)[C@H]6C[C@@H](C(=O)O)C6(C)C)C(C)(C)[C@@H]5CC[C@@]4(C)[C@]3(C)CC[C@@]2(CCNC(=O)c2cccnc2)CC1=O |  | MT-2 | 92HT599 | p24 / ELISA | EC50 | <1 µM |
| CC(C)c1c(Cc2ccccc2)n(COCc2ccccc2)c(=O)[nH]c1=O |  | TZM-bl | SF33 | p24 / ELISA | EC50 | 0.022 µM |
| CCNc1nc(N)nc2c1ncn2CC1(OCP(=O)(O)O)CC1 |  |  |  |  | EC50 | >30 µM |
| CSc1nc2c(c(N(C)C)n1)C=Nn1c(nc3ccccc31)S2 | RT-L100I | CEM + CEM-SS | OC(RT-L100I) | cytopathic effect / XTT | EC50 | 0.14 µM |

A second listing of 3 rows from above:

| structure | changes | cell line | strain or isolate | read by | measure | result |
|---|---|---|---|---|---|---|
| CC(C)[C@@H]1NC(=O)CCOCCCOc2ccc(cc2)C[C@@H]([C@H](O)CN2C[C@H]3CCCC[C@H]3C[C@H]2C(=O)NC(C)(C)C)NC1=O |  | MT-2 | RF | p24 | EC50 | 0.004 µM |
| COc1ccnc2[nH]cc(C(=O)C(=O)N3CCN(C(=O)c4ccccc4)C[C@H]3C)c12 |  | PBMC | LAI | RT activity | EC50 | <0.04 µM |
| CC(=O)c1ccc(S(=O)(=O)N(CC(C)C)C[C@@H](O)[C@H](Cc2ccccc2)NC(=O)O[C@H]2CO[C@H]3OCC[C@H]32)cc1 |  | MT-2 | LAI | MTT / absorbance | EC50 | 0.002 µM |

Conditions beyond the fields shown may differ between rows. a–b is a range or a potency band. Blank or dashed fields: not listed here.